Laboratory results published in PubChem BioAssay AID720488 (Milwaukee Institute for Drug Discovery, 2013).
This is a selection; strong and weak results do not stand in their true shares. Active and inactive are the calls of the source.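 The calls were made as follows: active = compound fluorescence over control fluorescence at most 0.8, a quencher, or at least a set upper limit, an enhancer; inactive = ratio between 0.8 and the set upper limit.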

Assay: fluorescence interference in NS3h DNA assay – biochemical, ChemBridge library, Cy5 readout, artefact control for HCV NS3 helicase inhibitor project (AID 720488)
Details: Cy5-dT15 DNA with NS3h, at 100 µM, actives lie on both sides, signal over control mean, under 1 quenches

Row | Compound | fluorescence interference ratio
1 | O=C(CF)NC(Sc1ccc(Cl)cc1)C(Cl)(Cl)Cl (centres undefined) | inactive: 1.06
2 | Cc1ccc(SC(NC(=O)c2ccccc2)C(Cl)Cl)cc1 (centres undefined) | active: 0.761
3 | COC(=O)NC(Sc1ccc(Cl)cc1)C(Cl)Cl (centres undefined) | active: 0.778
4 | CCCCSP(=O)(OCC(C)C)OCC(C)C | inactive: 0.959
